# What was measured:
# Type in all cases: cell-based, Dengue virus
# DENV-4 strain H241 = experiment: Tetravalent RT-qPCR assay Protocol A, serotype 4; details: RT-qPCR serotype 4 H241
# Experimental: (§1) The antiviral activity of the compounds of the invention was tested against DENV-1 strain TC974#666 (NCPV), DENV-2 strain 16681, DENV-3 strain H87 (NCPV) and DENV-4 strain H241 (NCPV) in a RT-qPCR assay. Therefore, Vero cells were infected with either DENV-1, or -2, or -3, or -4 in the presence or absence of test compounds. At day 3 post-infection, the cells were lysed and cell lysates were used to prepare cDNA of both a viral target (the 3′UTR of DENV; Table 2) and a cellular reference gene (β-actin, Table 2). Subsequently, a duplex real time PCR was performed on a Lightcycler480 instrument. The generated Cp value is inversely proportional to the amount of RNA expression of these targets. Inhibition of DENV replication by a test compound results in a shift of Cp's for the 3′UTR gene. On the other hand, if a test compound is toxic to the cells, a similar effect on β-actin expression will be observed. The comparative ΔΔCp method is used to calculate EC50, which is based on the relative gene expression of the target gene (3′UTR) normalized with the cellular housekeeping gene (β-actin). In addition, CC50 values are determined based on the Cp values acquired for the housekeeping gene β-actin.
# (§2) The culture medium consisted of minimal essential medium supplemented with 2% of heat-inactivated fetal calf serum, 0.04% gentamycin (50 mg/mL) and 2 mM of L-glutamine. Vero cells, obtained from ECACC, were suspended in culture medium and 75 μL/well was added in 96-well plates (10000 cells/well), which already contain the antiviral compounds. […] In addition, each plate contains wells which are assigned as virus controls (containing cells and virus in the absence of compound) and cell controls (containing cells in the absence of virus and compound). Once the cells were added in the plates, the plates were incubated in a fully humidified incubator (37° C., 5% CO2) until the next day. Dengue viruses serotype-1, 2, 3 and 4 were diluted in order to obtain a Cp of ˜22-24 in the assay. Therefore, 25 μL of virus suspension was added to all the wells containing test compound and to the wells assigned as virus control. In parallel, 25 μL of culture medium was added to the cell controls. Next, the plates were incubated for 3 days in a fully humidified incubator (37° C., 5% CO2). After 3 days, the supernatant was removed from the wells and the cells were washed twice with ice-cold PBS (˜100 μL). The cell pellets within the 96-well plates were stored at −80° C. for at least 1 day. Next, RNA was extracted using the Cells-to-CT™ lysis kit, according to the manufacturer's guideline (Life Technologies). The cell lysates can be stored at −80° C. or immediately used in the reverse transcription step.
# (§3) In preparation of the reverse transcription step, mix A (table 3A) was prepared and 7.57 μL/well was dispensed in a 96-well plate. After addition of 5 μL of the cell lysates, a five minute denaturation step at 75° C. was performed (table 3B). Afterwards, 7.43 μL of mix B was added (table 3C) and the reverse transcription step was initiated (table 3D) to generate cDNA.
# (§4) Finally, a RT-qPCR mix was prepared, mix C (table 4A), and 22.02 μL/well was dispensed in 96-well LightCycler qPCR plates to which 3 μL of cDNA was added and the qPCR was performed according to the conditions in table 4B on a LightCycler 480.
# (§5) Using the LightCycler software and an in-house LIMS system, dose response curves for each compound were calculated and the half maximal effective concentration (EC50) and the half maximal cytotoxic concentration (CC50) were determined (Tables 5-8).
# DENV-2 16681 strain = experiment: DENV-2 antiviral assay (eGFP fluorescence, Vero cells); details: SI=CC50/EC50, DENV-2 antiviral assay
# Experimental: The antiviral activity of all the compounds of the invention was tested against the DENV-2 16681 strain which was labeled with enhanced green fluorescent protein (eGPF). The culture medium consists of minimal essential medium supplemented with 2% of heat-inactivated fetal calf serum, 0.04% gentamycin (50 mg/mL) and 2 mM of L-glutamine. Vero cells, obtained from ECACC, were suspended in culture medium and 25 μL was added to 384-well plates (2500 cells/well), which already contain the antiviral compounds. Typically, these plates contain a 5-fold serial dilution of 9 dilution steps of the test compound at 200 times the final concentration in 100% DMSO (200 nL). […] Finally, each plate contains wells which are assigned as virus controls (containing cells and virus in the absence of compound), cell controls (containing cells in the absence of virus and compound) and medium controls (containing medium in the absence of cells, virus and compounds). To the wells assigned as medium control, 25 μL of culture medium was added instead of Vero cells. Once the cells were added to the plates, the plates were incubated for 30 minutes at room temperature to allow the cells to distribute evenly within the wells. Next, the plates were incubated in a fully humidified incubator (37° C., 5% CO2) until the next day. Then, DENV-2 strain 16681, labeled with eGFP, was added at a multiplicity of infection (MOI) of 0.5. Therefore, 15 μL of virus suspension was added to all the wells containing test compound and to the wells assigned as virus control. In parallel, 15 μL of culture medium was added to the medium and cell controls. Next, the plates were incubated for 3 days in a fully humidified incubator (37° C., 5% CO2). At the day of the read out, the eGFP fluorescence was measured using an automated fluorescence microscope at 488 nm (blue laser). Using an in-house LIMS system, inhibition dose response curves for each compound were calculated and the half maximal effective concentration (EC50) was determined. Therefore, the percent inhibition (I) for every test concentration is calculated using the following formula: I=100*(ST-SCC)/(SVC-SCC), ST, SCC and SVC are the amount of eGFP signal in the test compound, cell control and virus control wells, respectively. The EC50 represents the concentration of a compound at which the virus replication is inhibited with 50%, as measured by a 50% reduction of the eGFP fluorescent intensity compared to the virus control. The EC50 is calculated using linear interpolation (Table 1).
# DENV-2 strain 16681 = experiment: Tetravalent RT-qPCR assay Protocol A, serotype 2; details: RT-qPCR serotype 2 16681
# Experimental: as §1, §2, §3, §4, §5
# DENV-1 strain TC974#666 = experiment: Tetravalent RT-qPCR assay Protocol A, serotype 1; details: RT-qPCR serotype 1 TC974#666
# Experimental: as §1, §2, §3, §4, §5
# DENV-3 strain H87 = experiment: Tetravalent RT-qPCR assay Protocol A, serotype 3; details: RT-qPCR serotype 3 H87
# Experimental: as §1, §2, §3, §4, §5
SMILES,SI (DENV-4 strain H241),SI (DENV-2 16681 strain),SI (DENV-2 strain 16681),SI (DENV-1 strain TC974#666),SI (DENV-3 strain H87)
"COc1cc(NC(C(=O)N2CCc3ccc(C(F)(F)F)cc32)c2ccc(F)cc2OCCO)cc(-n2cncn2)c1 (single isomer, unassigned) [Compound 1B]",10,3530,>1480,>2290,>123
"COc1cc(NC(C(=O)N2CCc3cc(OC)c(C(F)(F)F)cc32)c2ccc(F)cc2OCCO)cc(-n2cncn2)c1 (single isomer, unassigned) [Compound 2B]",>11,4180,2070,>744,>118
"COc1cc(NC(C(=O)N2CCc3ccc(OC(F)(F)F)cc32)c2ccc(F)cc2OCCO)cc(-n2cncn2)c1 (single isomer, unassigned) [Compound 3B]",>25,11400,5680,>1550,>136
"COc1cc(NC(C(=O)N2CCc3ccc(C(F)(F)F)cc32)c2ccc(Cl)cc2OCCO)cc(-n2cncn2)c1 (single isomer, unassigned) [Compound 4B]",23,16100,6270,>8060,228
"COc1cc(NC(C(=O)N2CCc3cc(OC)c(C(F)(F)F)cc32)c2ccc(Cl)cc2OCCO)cc(-n2cncn2)c1 (single isomer, unassigned) [Compound 5B]",>33,14400,6730,>981,>116
"COc1cc(NC(C(=O)N2CCc3ccc(OC(F)(F)F)cc32)c2ccc(Cl)cc2OCCO)cc(-n2cncn2)c1 (single isomer, unassigned) [Compound 6A]",>53,14900,18700,>10900,>227
"COc1cc(NC(C(=O)N2CCc3cc(F)c(C(F)(F)F)cc32)c2ccc(Cl)cc2OCCO)cc(-n2cncn2)c1 (single isomer, unassigned) [Compound 7B]",10,4180,>9150,>6750,>259
"COc1cc(NC(C(=O)N2CCc3cc(OC)c(OC(F)(F)F)cc32)c2ccc(Cl)cc2OCCO)cc(-n2cncn2)c1 (single isomer, unassigned) [Compound 8A]",21,7360,3620,>1570,>203
"COc1cc(NC(C(=O)N2CCc3cc(F)c(OC(F)(F)F)cc32)c2ccc(Cl)cc2OCCO)cc(-n2cncn2)c1 (single isomer, unassigned) [Compound 9B]",27,13800,>4250,>2860,>103
"COc1cc(NC(C(=O)N2CCc3c(C)cc(OC(F)(F)F)cc32)c2ccc(Cl)cc2OCCO)cc(-n2cncn2)c1 (single isomer, unassigned) [Compound 10B]",27,51400,>10700,>8670,>414
"COc1cc(NC(C(=O)N2CCc3ccc(C(F)(F)F)cc32)c2ccc(Cl)cc2OCCCC(=O)O)cc(-n2cncn2)c1 (single isomer, unassigned) [Compound 11B]",184,45200,64900,>41800,>991
"COc1cc(NC(C(=O)N2CCc3cc(OC)c(C(F)(F)F)cc32)c2ccc(Cl)cc2OCCCC(=O)O)cc(-n2cncn2)c1 (single isomer, unassigned) [Compound 12A]",96,11000,19800,3850,384
"COc1cc(NC(C(=O)N2CCc3ccc(OC(F)(F)F)cc32)c2ccc(Cl)cc2OCCCC(=O)O)cc(-n2cncn2)c1 (single isomer, unassigned) [Compound 13A]",251,103601,>53100,>32500,>1580
"COc1cc(NC(C(=O)N2CCc3ccc(OC(F)(F)F)cc32)c2ccc(Cl)cc2OCCC(C)(C)C(=O)O)cc(-n2cncn2)c1 (single isomer, unassigned) [Compound 14B]",61,35500,>9320,8720,>644
"COc1cc(NC(C(=O)N2CCc3cc(F)c(OC(F)(F)F)cc32)c2ccc(Cl)cc2OCCCC(=O)O)cc(-n2cncn2)c1 (single isomer, unassigned) [Compound 15A]",–,1970,–,–,–
"COc1cc(NC(C(=O)N2CCc3cc(F)c(OC(F)(F)F)cc32)c2ccc(Cl)cc2OCCCC(=O)O)cc(-n2cncn2)c1 (single isomer, unassigned) [Compound 15B]",174,94800,>22600,46500,3130
"COc1cc(NC(C(=O)N2CCc3c(C)cc(OC(F)(F)F)cc32)c2ccc(Cl)cc2OCCCC(=O)O)cc(-n2cncn2)c1 (single isomer, unassigned) [Compound 16A]",–,800,–,–,–
"COc1cc(NC(C(=O)N2CCc3c(C)cc(OC(F)(F)F)cc32)c2ccc(Cl)cc2OCCCC(=O)O)cc(-n2cncn2)c1 (single isomer, unassigned) [Compound 16B]",181,>174673,>44200,>23100,>1780

# From patent publication US11083707B2, “Substituted indoline derivatives as dengue viral replication inhibitors” (JANSSEN PHARMACEUTICALS, INC., priority 2017, dated 2021)
